System: H1N1 A/Puerto Rico/8/34-NS116-GFP
Assay: Antiviral effect against GFP reporter virus on A549 cells

| SMILES | Difference of EC50 to gallic acid when expressed in µg/ml | More active than gallic acid on a molar basis (EC50 in µM) | SI higher than other single pseudotannins or tannic acid |
| --- | --- | --- | --- |
| O=C(OC[C@H]1O[C@@H](OC(=O)c2cc(O)c(O)c(OC(=O)c3cc(O)c(O)c(O)c3)c2)[C@H](OC(=O)c2cc(O)c(O)c(OC(=O)c3cc(O)c(O)c(O)c3)c2)[C@@H](OC(=O)c2cc(O)c(O)c(OC(=O)c3cc(O)c(O)c(O)c3)c2)[C@@H]1OC(=O)c1cc(O)c(O)c(OC(=O)c2cc(O)c(O)c(O)c2)c1)c1cc(O)c(O)c(OC(=O)c2cc(O)c(O)c(O)c2)c1 [Tannic acid, tannic acid] | 1.3 fold | ~12 fold |  |
| O=C(O[C@@H]1Cc2c(O)cc(O)cc2O[C@@H]1c1cc(O)c(O)c(O)c1)c1cc(O)c(O)c(O)c1 [EGCG, (−)-epigallocatechin gallate] |  |  | 2- to 6 fold |
